Pooled drug test results. Numbers come from NIAID ChemDB, via PubChem.

All rows: enzyme or target tests; organism: HIV-1; protein: Reverse transcriptase

ICn: concentration for n% inhibition. Blank or dashed fields: not listed here. Rows are shuffled and stem from different studies.

CC(C)=CCC[C@](C)(O)C1CC[C@]2(C)C1CC[C@@H]1[C@@]3(C)CC[C@H](O)C(C)(C)[C@@H]3CC[C@]12C ; method: nucleotide incorporation ; read-out: IC50 ; result: >45 µM
C#Cc1ccc(Nc2nccc(Oc3c(C)cc(-c4cn(CC(=O)Nc5ccc(F)cc5)nn4)cc3C)n2)cc1 ; method: RT activity / ELISA ; read-out: IC50 ; result: 0.36 µM
C#C[C@@]1(COP(=O)(O)OP(=O)(O)OP(=O)(O)O)CC[C@H](n2ccc(N)nc2=O)O1 ; mutations: RT-M184V ; method: nucleotide incorporation / radiometric ; read-out: IC50 ; result: 0.2 µM
CCN1c2ncc(CN(C)c3ccccc3)cc2C(=O)N(C)c2ccc(Cl)nc21 ; mutations: RT-Y181C ; method: nucleotide incorporation / radiometric ; read-out: IC50 ; result: >1 µM
Nc1ccn([C@H]2CC[C@@H](COP(=O)(O)OP(=O)(O)OP(=O)(O)O)O2)c(=O)n1 ; strain or isolate: HXB2 ; mutations: RT-L74V T215Y ; method: nucleotide incorporation ; read-out: Ki ; result: 75 µM
CCN1c2ncc(C(C)O)cc2C(=O)N(C)c2ccc(Cl)nc21 ; mutations: RT-Y181C ; method: nucleotide incorporation / radiometric ; read-out: IC50 ; result: <1 µM
COc1ccc2c(c1)N(C(=O)OC(C)C)[C@@H](CSC)C(=S)N2 ; mutations: RT-G190A ; method: scintillation proximity / radiometric ; read-out: IC50 ; result: 0.71 µM
Nc1ncnc2c1ncn2[C@H]1CC[C@@H](COP(=O)(O)OP(=O)(O)OP(=O)(O)O)O1 ; mutations: RT-L74V T215Y K219Q ; method: ELISA ; read-out: IC50 ; result: 35.9 µM
C#Cc1ccc(Nc2nccc(Oc3c(C)cc(-c4cn(Cc5ccc(C#N)cc5)nn4)cc3C)n2)cc1 ; method: RT activity / ELISA ; read-out: IC50 ; result: 0.4 µM
CCN1c2ncc(CCc3ccccc3)cc2C(=O)Nc2c(C)cc(Cl)nc21 ; strain or isolate: WT ; method: nucleotide incorporation / radiometric ; read-out: IC50 ; result: <1 µM
Nc1ncnc2c1ccn2[C@H]1CC[C@@H](COP(=O)(O)OP(=O)(O)OP(=O)(O)O)O1 ; method: RT activity ; read-out: IC50 ; result: 0.39 µM
CCN1c2ncc(Cc3cccc(O)c3)cc2C(=O)N(C)c2ccc(Cl)nc21 ; mutations: RT-Y181C ; method: nucleotide incorporation / radiometric ; read-out: IC50 ; result: <1 µM
Nc1ccn([C@H]2CC[C@@H](COP(=O)(O)OP(=O)(O)OP(=O)(O)O)O2)c(=O)n1 ; mutations: RT-T215Y K219Q ; method: ELISA ; read-out: IC50 ; result: 4.3 µM
CCN1c2ncc(CCOc3ccncc3)cc2C(=O)N(C)c2ccc(Cl)nc21 ; mutations: RT-Y181C ; method: nucleotide incorporation / radiometric ; read-out: IC50 ; result: <1 µM
O=C(O)CN1C(C(=O)O)C2c3cc4c5c6c3-c3c(cc7c8c3C6C3c6c-5c(cc5ccc9cc(c-8c3c9c65)C7)C4)C2C1C(=O)O ; method: nucleotide incorporation / radiometric ; read-out: IC50 ; result: 0.029 µM
C#Cc1ccc(Nc2nccc(Oc3c(C)cc(-c4cn(Cc5ccccc5[N+](=O)[O-])nn4)cc3C)n2)cc1 ; method: RT activity / ELISA ; read-out: IC50 ; result: 0.15 µM
Nc1nc(=O)n([C@@H]2CS[C@H](COP(=O)(O)OP(=O)(O)OP(=O)(O)O)O2)cc1F ; strain or isolate: HXB2 ; method: nucleotide incorporation ; read-out: Ki ; result: 2.9 µM
CCc1cc(CCc2nc3ccccc3o2)c(=O)[nH]c1C ; mutations: RT-K103N ; method: nucleotide incorporation ; read-out: IC50 ; result: 1.7 µM
C#Cc1ccc(Nc2nccc(Oc3c(C)cc(-c4cn(Cc5ccc(C(N)=O)cc5)nn4)cc3C)n2)cc1 ; method: RT activity / ELISA ; read-out: IC50 ; result: 0.06 µM
Nc1nc2c(ncn2[C@H]2C=C[C@@H](COP(=O)(O)OP(=O)(O)OP(=O)(O)O)C2)c(=O)[nH]1 ; read-out: Ki ; result: 0.021 µM
CC1=CC[C@H](O)C(C)(C)[C@@H]1CC/C(C)=C/CCC1=C(C)CC[C@@]2(C)CCC(C)(C)C[C@@H]12 ; method: nucleotide incorporation ; read-out: IC50 ; result: >47 µM
O=c1c2nccn2c2ccccc2n1CCNC(=S)Nc1ccc(Br)cn1 ; mutations: RT-Y181I ; method: nucleotide incorporation ; read-out: Ki ; result: 1.45 µM
CC1(C)[C@H](O)CC[C@]2(C)C3=C(C(=O)C[C@@H]12)[C@@]1(C)CC[C@@]2(C)CC[C@@](C)(CO)C[C@H]2[C@]1(C)CC3 ; method: nucleotide incorporation ; read-out: IC50 ; result: 33 µM
CCN1c2ncc(CCc3cc[nH]c(=O)c3)cc2C(=O)N(C)c2ccc(Cl)nc21 ; mutations: RT-Y181C ; method: nucleotide incorporation / radiometric ; read-out: IC50 ; result: <1 µM
C=C1CC23CCC4[C@@](C)(CCC[C@@]4(C)C(=O)O)C2CC[C@H]1C3 ; method: RT activity ; read-out: IC50 ; result: 34.1 µg/mL
CC[C@H](CC[C@@H](C)[C@H]1CC[C@H]2[C@@H]3CC[C@H]4C[C@@H](O)CC[C@]4(C)[C@H]3CC[C@]12C)C(C)C ; method: nucleotide incorporation ; read-out: IC50 ; result: 3.9 µM
C#Cc1ccc(Nc2nccc(Oc3c(C)cc(-c4cn(Cc5ccc(S(N)(=O)=O)cc5)nn4)cc3C)n2)cc1 ; method: RT activity / ELISA ; read-out: IC50 ; result: 0.11 µM
CC(C)=CCC[C@@H](C)C1=C2CC[C@@H]3[C@@]4(C)CC[C@H](O)C(C)(C)[C@@H]4CC[C@@]3(C)[C@]2(C)CC1 ; method: nucleotide incorporation ; read-out: IC50 ; result: 4.5 µM
Cc1cccc(-c2cc(C)c(Nc3ccnc(Nc4ccc(C#N)cc4)n3)c(C)c2)c1 ; method: RT activity / PicoGreen / fluorescence ; read-out: IC50 ; result: 0.018 µM
C=C(C)[C@@H]1CC[C@]2(C=O)CC[C@]3(C)[C@H](CC[C@@H]4[C@@]5(C)CCC(=O)C(C)(C)[C@@H]5CC[C@]43C)[C@@H]12 ; method: nucleotide incorporation ; read-out: IC50 ; result: 3.4 µM
CCc1cc(CCc2nc3c(Cl)ccc(Cl)c3o2)c(=O)[nH]c1C ; mutations: RT-K103N ; method: nucleotide incorporation ; read-out: IC50 ; result: 0.3 µM

Again, the opening 3 rows:

compound | strain or isolate | mutations | method | read-out | result
CC(C)=CCC[C@](C)(O)C1CC[C@]2(C)C1CC[C@@H]1[C@@]3(C)CC[C@H](O)C(C)(C)[C@@H]3CC[C@]12C |  |  | nucleotide incorporation | IC50 | >45 µM
C#Cc1ccc(Nc2nccc(Oc3c(C)cc(-c4cn(CC(=O)Nc5ccc(F)cc5)nn4)cc3C)n2)cc1 |  |  | RT activity / ELISA | IC50 | 0.36 µM
C#C[C@@]1(COP(=O)(O)OP(=O)(O)OP(=O)(O)O)CC[C@H](n2ccc(N)nc2=O)O1 |  | RT-M184V | nucleotide incorporation / radiometric | IC50 | 0.2 µM